Experimental data from patent US20240335555A1, “TECHNOLOGIES FOR PREVENTING OR TREATING INFECTIONS” (BIOHAVEN THERAPEUTICS, published 2024).

Molecular target: SARS-CoV-2 (COVID-19) S Protein RBD, His Tag (SARS-CoV-2, UniProt P0DTC2 319-537)
Assay: BLI (Octet), LCB3 binding to anchored Spike RBD

B1: I-25 (designed binder)
chain: NDDELLMLVTDLVAEALLFAKDEEIKKRVFTLFELADKAYKNNDRDTLSKVVSELKELLERLQSGGSEQKLISEEDLGSGGGGSLPETGGGGSGGSSHHHHHHHHHH
notes: also called P228; LCB3
B1: no binding.
